Patent US8883077B2, “Disinfecting, nonbleaching N-halamine for use with contact lens” (Auburn University, priority 2010, dated 2014)

Assay: Bleaching of blue dye in ACUVUE 2 contact lens soaked in Unisol 4 (visual and UV/VIS)

SMILES: CC1(C)NC(=O)C(C)(C)N1Cl [compound 1, 1-chloro-2,2,5,5-tetramethyl-4-imidazolidinone]
- blue color of contact lens, visual observation (100 mg/L or 500 mg/L in Unisol 4, storage for 2 months): did not appear to change
- bleaching by UV/VIS spectra (absorption bands near 600 nm) (500 ppm and 100 ppm in Unisol 4, refreshed daily, 2 months (FIG. 1)): little bleaching occurred

SMILES: CC1(C)CC(O)CC(C)(C)N1Cl [compound 2, 1-chloro-2,2,6,6-tetramethyl-4-piperidinol, reference compound]
- time to complete disappearance of blue color, visual observation (100 mg/L in Unisol 4): ≤ 2 weeks
- time to complete disappearance of blue color, visual observation (500 mg/L in Unisol 4): within a week
